Assays:
[1] = tested on: MDA-MB-468 cells (EGFR++/HER2-/CD71+); assay: Cell killing / cell viability, MDA-MB-468 cells; format: cell-based, human; details: titrated + fixed 10 pM CD71mab-saporin
[2] = tested on: human A431 tumor cells (xenograft; high EGFR, medium CD71, low HER2); assay: A431 xenograft mouse tumor model, tumor volume; format: in vivo; details: Balb/c nude mice, sub-optimal ADC dose, tumor ~170-180 mm^3 at start
Method: Female Balb/c nude mice were injected subcutaneously with a suspension of human A431 tumor cells. Under the skin of the mice, a human epidermal carcinoma developed in the xenograft animal tumor model. After injection of the tumor cells, the xenograft tumor was allowed to develop to a size of approximately 170-180 mm^3. The A431 tumor cells have the following characteristics: high EGFR expressors, medium CD71 expressors, low HER2 expressors.
In Table A, the results of the treatment of control mice and tumor-bearing mice are presented. Tumor-bearing mice were treated with the indicated antibodies directed to either human Her2/neu, human EGFR, or human CD71, which are cell-surface receptors on the xenograft tumor. Cetuximab was covalently conjugated with saponin SO1861. […] The ADCs trastuzumab-saporin (covalent conjugate) and anti-CD71 mAb (OKT-9, IgG)—saporin (covalent conjugate) were tested for their tumor-attacking efficacy in the mice, measured as tumor volume in time after start of the treatment with the ADCs. The dose of the ADCs was sub-optimal in the tumor model. […]
The conjugate was tested in a A431 (EGFR^++) xenograph mouse tumor model for EGFR tumor targeted cell killing as illustrated in FIG. 9-4. Dosings started at day 12 when tumors reached ˜150 mm^3 in size and tumor volume was determined after every dosing.

[3] = tested on: SK-BR-3 cells (HER2++/EGFR+/-/CD71+); assay: Cell killing / cell viability, SK-BR-3 cells; format: cell-based, human

Cetuximab-Lys-(dendron(-L-SO1861)^4)^4,4: dendron(-L-SO1861)^4 conjugated to lysines of cetuximab
IC50 cell killing [1]: strong enhancement of the cell killing activity

Cetuximab-SO1861 (covalent conjugate): SO1861-EMCH covalently coupled to reduced cysteines of cetuximab
tumor size (volume) [2]: 2000 mm^3

trastuzumab-(L-SO1861)^3,8: trastuzumab with labile SO1861, control conjugate
IC50 cell killing ([3]; substance alone, no partner): not observed

trastuzumab-Lys-(dendron(-L-SO1861)^4)^4,7: dendron(-L-SO1861)^4 conjugated to lysines of trastuzumab
IC50 cell killing ([3]; titrated + fixed 10 pM CD71mab-saporin): strong cell killing activity

Reference: patent US20220218837A1, “DRUG CONJUGATE” (priority 2018, published 2022)
